## Mutational interference map of HIV-1 RNA dimerization

Reference: Ye et al. 2022, doi:10.1038/s41594-022-00746-2.

RNA: 5' end of the HIV-1 NL4-3 genome, made in vitro. Positions 1-437 read:
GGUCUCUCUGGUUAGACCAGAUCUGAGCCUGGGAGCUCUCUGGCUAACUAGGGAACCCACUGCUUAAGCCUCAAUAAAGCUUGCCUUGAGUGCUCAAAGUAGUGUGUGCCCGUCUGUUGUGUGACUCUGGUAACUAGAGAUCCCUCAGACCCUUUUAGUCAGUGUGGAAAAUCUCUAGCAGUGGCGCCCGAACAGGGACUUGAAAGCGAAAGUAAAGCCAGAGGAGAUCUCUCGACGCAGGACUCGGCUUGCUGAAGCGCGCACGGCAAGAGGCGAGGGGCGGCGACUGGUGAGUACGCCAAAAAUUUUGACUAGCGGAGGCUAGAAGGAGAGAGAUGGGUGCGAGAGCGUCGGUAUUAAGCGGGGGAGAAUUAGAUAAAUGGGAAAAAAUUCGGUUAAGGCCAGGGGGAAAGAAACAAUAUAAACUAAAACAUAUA

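Mutant RNA libraries with 1G, 2G or 3G starts, with or without cap, were folded at 37 °C for 30 min. Monomer and dimer bands were cut from native gels after folding in high salt (300 mM KCl, 5 mM MgCl2) or low salt (40 mM KCl, 0.1 mM MgCl2). Mutation frequencies in the two bands give Kdimer.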

Scale: median log2 Kdimer over the changes at a position; positive = changes inhibit dimerization, negative = changes enhance it. One numbering serves 1G, 2G and 3G. A position is written with its base.

position	domain	3G uncapped high-salt	3G capped low-salt
A124	none	0.14	0.55
C125	PAS	0.10	0.54
U126	PAS	0.28	0.86
C127	PAS	0.33	0.84
U128	PAS	0.29	0.85
G129	PAS	0.39	1.10
G130	PAS	0.40	0.70
U131	PAS	0.29	0.79
A132	PBS	0.02	-0.07
A133	PBS	0.15	0.09
C134	PBS	0.14	-0.22
U135	PBS	0.19	-0.02
A136	PBS	0.16	-0.16
G137	PBS	0.19	0.33
A138	PBS	0.02	0.27
G139	PBS	0.15	0.39
A140	PBS	0.20	0.25
U141	PBS	0.14	0.36
C142	PBS	0.07	0.12
C143	PBS	0.01	0.28
C144	PBS	-0.04	0.20
U145	PBS	0.01	0.18
C146	PBS	0.04	0.02
A147	PBS	0.07	-0.17
G148	PBS	-0.09	0.42
A149	PBS	-0.01	-0.16
C150	PBS	0.20	0.52
C151	PBS	-0.01	-0.09
C152	PBS	-0.04	-0.38
U153	PBS	0.00	0.14
U154	PBS	-0.04	0.02
U155	PBS	0.03	-0.03
U156	PBS	0.15	-0.26
A157	PBS	0.12	-0.03
G158	PBS	-0.16	-0.39
U159	PBS	-0.15	-0.14
C160	PBS	-0.20	-0.36
A161	PBS	0.05	0.10
G162	PBS	-0.11	-0.45
U163	PBS	0.02	0.03
G164	PBS	-0.06	0.09
U165	PBS	-0.06	0.14
G166	PBS	0.18	-0.07
G167	PBS	0.27	0.17
A168	PBS	0.03	0.24
A169	PBS	0.02	0.00
A170	PBS	-0.01	0.00
A171	PBS	0.15	0.12
U172	PBS	0.24	0.48
C173	PBS	-0.15	-0.38
U174	PBS	0.01	-0.55
C175	PBS	-0.02	-0.36
U176	PBS	-0.07	-0.24
A177	PBS	0.16	-0.71
G178	PBS	0.38	0.72
C179	PBS	-0.09	-0.27
A180	PBS	0.11	-0.24
G181	PBS	-0.27	-0.71
U182	PBS	0.07	0.72
G183	PBS	0.16	-0.12
G184	PBS	0.34	0.79
C185	PBS	0.05	-0.46
G186	PBS	-0.04	-0.45
C187	PBS	-0.10	-0.26
C188	PBS	0.19	0.67
C189	PBS	0.17	0.30
G190	PBS	0.15	0.40
A191	PBS	0.11	-0.10